Patent publication US20240175865A1, “IMPROVED PROCESSES FOR RATIONALLY-DESIGNING AND PRODUCING BIOMOLECULES” (priority 2020, published 2024)
Read-outs that look alike come from different tables or passages of the source.

Tests used:
Assay type in all cases: binding
Details in all cases: 100 nM protein, pH 8.0, 20° C.
[1] = molecular target: Yersinia enterocolitica TogB variant K94C, MDCC conjugate (parent TogB SEQ ID NO: 2) (Yersinia enterocolitica, UniProt A0ACH1C7V4, K99C)
[2] = molecular target: Yersinia enterocolitica TogB variant F242C, MDCC conjugate (parent TogB SEQ ID NO: 2) (Yersinia enterocolitica, UniProt A0ACH1C7V4, F247C)
[3] = molecular target: Yersinia enterocolitica TogB variant A279C, MDCC conjugate (parent TogB SEQ ID NO: 2) (Yersinia enterocolitica, UniProt A0ACH1C7V4, A284C)
[4] = molecular target: Yersinia enterocolitica TogB variant K357C, MDCC conjugate (parent TogB SEQ ID NO: 2) (Yersinia enterocolitica, UniProt A0ACH1C7V4, K362C)

O=C(O)[C@H]1O[C@H](O[C@@H]2[C@H](O)[C@@H](O)C(O)O[C@@H]2C(=O)O)[C@H](O)[C@@H](O)[C@H]1O (stereo partly shown) [digalUA, digalacturonic acid]
Response (change in peak fluorescence intensity) ([1]; 48 μM digalUA): N.C. (negligible change in fluorescence for a given condition (less than 10% change in fluorescence))
Response (percentage change in peak fluorescence intensity) ([2]; 48 μM digalUA): −10%
Response (percentage change in peak fluorescence intensity) ([3]; 48 μM digalUA): −31%
Response (percentage change in peak fluorescence intensity) ([4]; 48 μM digalUA): −25%

O=C(O)[C@H]1OC(O)[C@H](O)[C@@H](O)[C@H]1O (stereo partly shown) [galacturonic acid, Galacturonic acid]
Response (change in peak fluorescence intensity) ([1]; 1710 μM galacturonic acid): N.C. (negligible change in fluorescence for a given condition (less than 10% change in fluorescence))
Response (change in peak fluorescence intensity) ([2]; 1710 μM galacturonic acid): N.C. (negligible change in fluorescence for a given condition (less than 10% change in fluorescence))
Response (change in peak fluorescence intensity) ([3]; 1710 μM galacturonic acid): N.C. (negligible change in fluorescence for a given condition (less than 10% change in fluorescence))
Response (change in peak fluorescence intensity) ([4]; 1710 μM galacturonic acid): N.C. (negligible change in fluorescence for a given condition (less than 10% change in fluorescence))

O=C(O)[C@H]1O[C@H](O[C@@H]2[C@H](O)[C@@H](O)[C@@H](O[C@@H]3[C@H](O)[C@@H](O)C(O)O[C@@H]3C(=O)O)O[C@@H]2C(=O)O)[C@H](O)[C@@H](O)[C@H]1O (stereo partly shown) [trigalUA, trigalacturonic acid]
Response (change in peak fluorescence intensity) ([1]; 570 μM trigalUA): N.C. (negligible change in fluorescence for a given condition (less than 10% change in fluorescence))
Response (percentage change in peak fluorescence intensity) ([2]; 570 μM trigalUA): −20%
Response (percentage change in peak fluorescence intensity) ([3]; 570 μM trigalUA): −30%
Response (percentage change in peak fluorescence intensity) ([4]; 570 μM trigalUA): −29%

O=C(O)C1=C[C@H](O)[C@@H](O)[C@@H](O[C@@H]2[C@H](O)[C@@H](O)C(O)O[C@@H]2C(=O)O)O1 (stereo partly shown) [unsatdigalUA, 4,5-unsaturated digalacturonic acid]
Response (change in peak fluorescence intensity) ([1]; 16 μM unsatdigalUA): N.C. (negligible change in fluorescence for a given condition (less than 10% change in fluorescence))
Response (percentage change in peak fluorescence intensity) ([2]; 16 μM unsatdigalUA): −14%
Response (percentage change in peak fluorescence intensity) ([3]; 16 μM unsatdigalUA): −31%
Response (percentage change in peak fluorescence intensity) ([4]; 16 μM unsatdigalUA): −32%
